This is an account of results in patent publication US20080051315A1, “Grp Receptor-Related Methods for the Treating and Preventing Fear-Related Disorders” (priority 2003, published 2008).

Sequences of proteins named here, by UniProt entry; tags and fusion partners are left off. A change or cut given only in a name is not applied to a line headed by its entry.
UniProt P21729: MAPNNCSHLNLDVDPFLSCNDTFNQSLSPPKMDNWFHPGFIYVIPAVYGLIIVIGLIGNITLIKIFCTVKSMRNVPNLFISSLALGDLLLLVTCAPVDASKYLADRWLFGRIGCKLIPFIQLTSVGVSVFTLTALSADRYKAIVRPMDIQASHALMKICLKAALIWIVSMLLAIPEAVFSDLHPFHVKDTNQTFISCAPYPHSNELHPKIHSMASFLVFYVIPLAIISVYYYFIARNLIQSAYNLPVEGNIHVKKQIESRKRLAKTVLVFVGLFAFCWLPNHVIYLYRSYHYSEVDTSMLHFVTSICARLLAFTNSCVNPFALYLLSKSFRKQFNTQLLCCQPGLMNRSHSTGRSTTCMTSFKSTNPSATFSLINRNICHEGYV

The target in this experiment is GRPR (Mus musculus, UniProt P21729). In kind it is cell-based.

gastrin-releasing peptide [GRP]: the “effect of GRP on frequency of sIPSCs in the presence of TTX” value is “TTX-sensitive”.
